From patent publication US20140302217A1, “PRESERVATIVE COMBINATIONS COMPRISING PROPIONIC ACID AND VANILLIN AND/OR CINNAMIC ACID” (Purac Biochem B.V., priority 2011, published 2014) come the findings set out here.

The series is described as follows: sensory / taste experiments.

As to `CCC(=O)O` [propionate, Propionic acid], under “in model drinks”, the “maximum acceptable amount (sensory tests)” value was “approximately 630 ppm”. Moreover, under “in water”, the “max acceptable amount (sensory experiments)” value is 630 ppm.
